{"source": "PubChem BioAssay AID624099 – ICCB-Longwood | 2012", "assay": "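Knock-downs relieving repression by E2 of an HPV18 LCR luciferase reporter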 (primary screen)", "cells": "human C33A cervical carcinoma cells (HPV-negative) stably expressing BPV1 E2 and an HPV18 LCR luciferase reporter", "knock-down reagent": "siRNA pool against human genes, 40 nM", "time to read-out": "72 h", "read-out": "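HPV18 LCR reporter light per well, converted to plate-wise z-scores that exclude control wells, and averaged over triplicate plates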", "scale": "mean z-score and z-score: higher = stronger reporter signal, weaker E2 silencing", "hit rule": "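Mean z ≥ 2 together with z ≥ 2 in two or more of the three replicates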", "note": "In all, the deposit lists about 21,000 reagents; this is a part drawn at random. Of all reagents, 497 (2.4%) are marked active. 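Higher z means weaker E2 silencing; only reporter increases were scored, and knock-downs that hurt cell survival may mask genuine repressor factors.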"}
{"target gene": "MRPL35", "mean z-score": -0.01, "z-score, replicate A": 0.21, "z-score, replicate B": -0.33, "z-score, replicate C": 0.1, "outcome": "inactive"}
{"target gene": "TULP3", "mean z-score": -0.25, "z-score, replicate A": -0.27, "z-score, replicate B": -0.2, "z-score, replicate C": -0.29, "outcome": "inactive"}
{"target gene": "GIMAP2", "mean z-score": -1.47, "z-score, replicate A": -1.73, "z-score, replicate B": -1.31, "z-score, replicate C": -1.38, "outcome": "inactive"}
{"target gene": "SACK1C", "mean z-score": 1.03, "z-score, replicate A": 0.59, "z-score, replicate B": 1.47, "z-score, replicate C": 1.03, "outcome": "inactive"}
{"target gene": "FLJ33534", "mean z-score": -0.69, "z-score, replicate A": -0.96, "z-score, replicate B": -0.41, "z-score, replicate C": -0.69, "outcome": "inactive"}
{"target gene": "TAF1", "mean z-score": -2.12, "z-score, replicate A": -1.93, "z-score, replicate B": -2.13, "z-score, replicate C": -2.31, "outcome": "inactive"}
{"target gene": "ERC2", "mean z-score": 0.34, "z-score, replicate A": 0.45, "z-score, replicate B": 0.26, "z-score, replicate C": 0.31, "outcome": "inactive"}
{"target gene": "PRMT3", "mean z-score": -0.4, "z-score, replicate A": -0.04, "z-score, replicate B": -0.51, "z-score, replicate C": -0.65, "outcome": "inactive"}
{"target gene": "LOC389271 (retired record)", "mean z-score": -0.61, "z-score, replicate A": -0.62, "z-score, replicate B": -0.7, "z-score, replicate C": -0.53, "outcome": "inactive"}
{"target gene": "ZC3H3", "mean z-score": 1.05, "z-score, replicate A": 0.8, "z-score, replicate B": 1.44, "z-score, replicate C": 0.9, "outcome": "inactive"}
{"target gene": "NCS1", "mean z-score": -0.33, "z-score, replicate A": -0.43, "z-score, replicate B": -0.25, "z-score, replicate C": -0.31, "outcome": "inactive"}
{"target gene": "NOLC1", "mean z-score": 0.86, "z-score, replicate A": 0.77, "z-score, replicate B": 1.16, "z-score, replicate C": 0.64, "outcome": "inactive"}
{"target gene": "GNB1L", "mean z-score": 1.34, "z-score, replicate A": 1.39, "z-score, replicate B": 1.1, "z-score, replicate C": 1.53, "outcome": "inactive"}
{"target gene": "RBFOX1", "mean z-score": 1.26, "z-score, replicate A": 1.44, "z-score, replicate B": 1.19, "z-score, replicate C": 1.14, "outcome": "inactive"}
{"target gene": "PIP4P2", "mean z-score": 0.01, "z-score, replicate A": 0, "z-score, replicate B": 0.46, "z-score, replicate C": -0.42, "outcome": "inactive"}
{"target gene": "C19orf84", "mean z-score": 0.1, "z-score, replicate A": -0.67, "z-score, replicate B": 0.96, "z-score, replicate C": 0.02, "outcome": "inactive"}
{"target gene": "LOC107985476", "mean z-score": -0.76, "z-score, replicate A": -0.88, "z-score, replicate B": -0.6, "z-score, replicate C": -0.8, "outcome": "inactive"}
{"target gene": "TPT1", "mean z-score": 0.34, "z-score, replicate A": 0.55, "z-score, replicate B": 0.19, "z-score, replicate C": 0.26, "outcome": "inactive"}
{"target gene": "TRPM7", "mean z-score": -0.32, "z-score, replicate A": -0.17, "z-score, replicate B": -0.61, "z-score, replicate C": -0.16, "outcome": "inactive"}
{"target gene": "PRAMEF3 (retired record)", "mean z-score": -0.73, "z-score, replicate A": -0.71, "z-score, replicate B": -0.67, "z-score, replicate C": -0.81, "outcome": "inactive"}
{"target gene": "SLC38A7", "mean z-score": -0.57, "z-score, replicate A": -1.01, "z-score, replicate B": -0.84, "z-score, replicate C": 0.15, "outcome": "inactive"}
{"target gene": "ABCC11", "mean z-score": -0.18, "z-score, replicate A": -0.1, "z-score, replicate B": 0.04, "z-score, replicate C": -0.48, "outcome": "inactive"}
{"target gene": "GRIP1", "mean z-score": -0.88, "z-score, replicate A": -1.08, "z-score, replicate B": -0.71, "z-score, replicate C": -0.83, "outcome": "inactive"}
{"target gene": "ZNF283", "mean z-score": 0.24, "z-score, replicate A": 0.41, "z-score, replicate B": 0.08, "z-score, replicate C": 0.22, "outcome": "inactive"}
{"target gene": "CD52", "mean z-score": 0.31, "z-score, replicate A": 0.29, "z-score, replicate B": 0, "z-score, replicate C": 0.64, "outcome": "inactive"}
{"target gene": "XKR3", "mean z-score": -0.21, "z-score, replicate A": -0.01, "z-score, replicate B": -0.21, "z-score, replicate C": -0.43, "outcome": "inactive"}
{"target gene": "PLA2G3", "mean z-score": -1.04, "z-score, replicate A": -0.91, "z-score, replicate B": -0.93, "z-score, replicate C": -1.27, "outcome": "inactive"}

Looked up above.
For “mean z-score”, C19orf84 has 0.1
Under “mean z-score”, NOLC1 reads 0.86
SLC38A7, outcome = inactive
Entry for XKR3 under “outcome”: inactive
